Source: PMC7605563

Target: Recombinant SARS-CoV-2 S1-614G with polyhistidine-tag (SARS-CoV-2)
Experiment: BLI

Work on “Recombinant hACE2 protein (from UniProt Q9BYF1) (receptor)” yielded a Kd of 1.65 nM.
